A mixed list of measured activities; the numbers were collected in NIAID ChemDB.

Common to all: enzyme or target tests; species: HIV-1; protein: Integrase; measure: inhibition

Percent inhibition refers to the dose given; in toxicity tests it is the harm to the cells. Blank or dashed fields: not listed here. Conditions beyond the fields shown may differ between rows.

structure,strain or isolate,read by,tested at,value
O=C(O)c1c[nH]c2ccc(S(=O)(=O)N3CCC(C(=O)O)CC3)cc2c1=O,,strand transfer,1000 µM,55.88%
O/N=C1\C(=C\c2ccc3c(c2)OCCO3)CCCC1C(NO)c1ccc2c(c1)OCCO2,RF,3′ processing,100 µg/mL,42%
CC[C@H](C)C(O)C(C)(O)/C=C/C1=CC2=CC(=O)[C@](C)(O)[C@H](O)[C@H]2CO1,,,100 µg/mL,0%
Oc1cc(O)c2c(c1)O[C@H](c1ccc(O)c(O)c1)[C@@H](O)C2,,3′ processing,100 µM,65%
COC(=O)/C=C/c1ccccc1,,strand transfer,100 µM,0%
O=C(O)c1c[nH]c2ccc(S(=O)(=O)N3CCN(c4ccccc4)CC3)cc2c1=O,,strand transfer,1000 µM,78.8%
O/N=C1\C(=C\c2ccc3c(c2)OCO3)CCCC1C(NO)c1ccc2c(c1)OCO2,RF,strand transfer,100 µg/mL,35.8%
O=C(O)c1cccnc1Nc1cccc(C(F)(F)F)c1,,AlphaScreen,10 µM,17.16%
C/C=C1\C(O[C@@H]2O[C@H](CO)[C@@H](O)[C@H](O)[C@H]2O)OC=C(C(=O)OC)[C@H]1CC(=O)OCCc1ccc(O)c(O)c1,,ELISA / strand transfer,25 µg/mL,4.7%
CC(C)Cc1ccc(C(C)C(=O)O)cc1,,AlphaScreen,10 µM,22.03%
O=C(O)c1c[nH]c2ccc(S(=O)(=O)N3CCC(Cc4ccccc4)CC3)cc2c1=O,,strand transfer,1000 µM,73.53%
NS(=O)(=O)c1ccc(Nc2c3ccccc3nc3c(C(=O)NC(CO)(CO)CO)cccc23)cc1,RF,strand transfer,100 µg/mL,40.5%
CC1(C)CCC[C@]2(C)[C@@H]1CC[C@@]13C[C@@H](CC[C@H]12)[C@@](O)(CO)C3,,ELISA / strand transfer,25 µg/mL,13.4%
O=CCc1c(-c2ccccc2)c2cc(Cl)ccc2[nH]c1=O,,AlphaScreen,10 µM,45.13%
O=C(O)c1c[nH]c2ccc(S(=O)(=O)N3CCN(c4ccccc4F)CC3)cc2c1=O,,strand transfer,1000 µM,73.9%
CC(=O)O[C@H](C)[C@@H]1C2=C(C(=O)C[C@]1(C)O)C(=O)c1c(ccc(-c3ccc4c(c3O)C(=O)C3=C(C4=O)[C@@H]([C@@H](C)OC(C)=O)[C@@](C)(O)CC3=O)c1O)C2=O,RF,3′ processing,100 µg/mL,50%
O=C(O)c1c[nH]c2ccc(S(=O)(=O)N3CCN(c4cccc(C(F)(F)F)c4)CC3)cc2c1=O,,strand transfer,1000 µM,73.16%
CCn1cc(C(=O)O)c(=O)c2ccc(C)nc21,,AlphaScreen,10 µM,22.34%
O=C(O)c1c[nH]c2ccc(S(=O)(=O)N3CCN(c4ccc(F)cc4)CC3)cc2c1=O,,strand transfer,1000 µM,89.58%
CC(C)c1c(C(=O)Nc2ccccc2)c(-c2ccccc2)c(-c2ccc(F)cc2)n1CC[C@@H](O)C[C@@H](O)CC(=O)O,,AlphaScreen,10 µM,51.85%
NC(CCSSCCC(N)P(=O)(O)O)P(=O)(O)O,RF,3′ processing,100 µg/mL,49.9%
CC(=O)O[C@@H]1[C@H]2O[C@H]2[C@H]2O[C@@]2(COC(=O)c2ccccc2)[C@H]1OC(C)=O,,ELISA / strand transfer,25 µg/mL,9%
C[C@@](Cc1ccc(O)c(O)c1)(NN)C(=O)O,,AlphaScreen,10 µM,62.02%
Cc1cc(C2(c3cc(C)c(O)c(CN(CC(=O)O)CC(=O)O)c3)OS(=O)(=O)c3ccccc32)cc(CN(CC(=O)O)CC(=O)O)c1O,RF,3′ processing,100 µg/mL,57.7%
CC1=C(CC(=O)O)c2cc(F)ccc2/C1=C\c1ccc(S(C)=O)cc1,,AlphaScreen,10 µM,33.75%
NC(N)=NS(=O)(=O)c1ccc(Nc2c3ccccc3nc3c(C(=O)NC(CO)(CO)CO)cccc23)cc1,RF,strand transfer,100 µg/mL,45.7%
CC(C(=O)O)c1cccc(C(=O)c2ccccc2)c1,,AlphaScreen,10 µM,11.06%
CN/N=C(/c1nc2ccc([N+](=O)[O-])cc2[nH]c1=O)C(O)c1ccc(C(O)/C(=N/NC)c2nc3ccc([N+](=O)[O-])cc3[nH]c2=O)cc1,RF,strand transfer,100 µg/mL,47.1%

A second listing of 2 rows from above:

structure	strain or isolate	read by	tested at	value
NS(=O)(=O)c1ccc(Nc2c3ccccc3nc3c(C(=O)NC(CO)(CO)CO)cccc23)cc1	RF	strand transfer	100 µg/mL	40.5%
O=C(O)c1c[nH]c2ccc(S(=O)(=O)N3CCN(c4cccc(C(F)(F)F)c4)CC3)cc2c1=O		strand transfer	1000 µM	73.16%